Measurements from PubChem BioAssay AID720547 (The Scripps Research Institute Molecular Screening Center, 2013).
Activity calls are given as the source filed them.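 How the source made its calls: active means compound flagged as a likely artifact in this counterscreen, with IC50 of 10 µM or lower; inactive means IC50 above 10 µM.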

Test system: HEK293 Gal4-VP16 luciferase reporter counterscreen, luminescence
Assay: VP16-driven transactivation reporter suppression potency – cell-based, luminescence, HEK293, counter-screen for COUP-TFII inhibitor project, dose response (AID 720547);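 further: potency for lowering the luciferase signal driven by Gal4-VP16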

`CC(=O)OC1C(=O)OCC23CCC4(C)OC4C2OC2CC(OC(=O)C=CC=CC(=O)OCCC1C)C3(C)C21CO1` (stereo unspecified) was tested, and the IC50 was inactive: > 85.5 µM.
